## Kdimer by position in the HIV-1 leader RNA

Data from the supplement of Ye et al. 2022, doi:10.1038/s41594-022-00746-2.

RNA: 5' end of the HIV-1 NL4-3 genome, made in vitro. Positions 1-437 read:
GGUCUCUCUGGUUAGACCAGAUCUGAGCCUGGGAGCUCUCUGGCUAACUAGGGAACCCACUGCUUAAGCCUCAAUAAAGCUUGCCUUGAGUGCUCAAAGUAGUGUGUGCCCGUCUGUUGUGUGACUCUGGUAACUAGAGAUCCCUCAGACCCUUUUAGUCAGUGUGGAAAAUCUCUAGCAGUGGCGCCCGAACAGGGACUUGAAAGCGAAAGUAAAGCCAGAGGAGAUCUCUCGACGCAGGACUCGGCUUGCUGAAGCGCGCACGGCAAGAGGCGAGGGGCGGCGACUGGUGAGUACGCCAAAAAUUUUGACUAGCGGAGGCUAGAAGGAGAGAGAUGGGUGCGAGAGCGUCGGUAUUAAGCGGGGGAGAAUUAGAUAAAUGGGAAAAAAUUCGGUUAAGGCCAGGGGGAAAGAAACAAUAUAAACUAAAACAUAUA

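Randomly mutated transcripts starting with one, two or three G (1G, 2G, 3G), capped or uncapped, were folded for 30 min at 37 °C. High salt was 300 mM KCl and 5 mM MgCl2, low salt 40 mM KCl and 0.1 mM MgCl2; monomer and dimer were parted on a native gel. Kdimer compares mutation frequencies in monomer and dimer, corrected for sequencing errors.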

Values are log2 Kdimer, the median over the changes at each position: higher means that changes there hinder dimer formation, below 0 that they favour it. One numbering serves 1G, 2G and 3G. A position is written with its base.

position,domain,1G uncapped high-salt,1G uncapped low-salt,2G capped high-salt,2G capped low-salt
U49,TAR,0.12,0.05,0.06,-0.03
A50,TAR,-0.01,-0.15,-0.07,0.05
G51,TAR,-0.01,0.00,0.00,-0.09
G52,TAR,0.19,0.06,-0.02,0.02
G53,TAR,-0.03,0.00,0.15,-0.23
A54,TAR,-0.07,-0.41,-0.54,-0.30
A55,TAR,0.12,0.17,0.21,0.18
C56,TAR,0.31,-0.06,0.25,-0.01
C57,TAR,0.07,-0.09,-0.06,0.07
C58,PolyA,0.27,0.35,0.19,0.54
A59,PolyA,0.31,0.26,0.19,0.27
C60,PolyA,0.44,0.24,0.50,0.16
U61,PolyA,0.37,0.32,0.25,0.05
G62,PolyA,0.28,0.48,0.30,0.66
C63,PolyA,0.43,0.00,0.36,0.06
U64,PolyA,0.34,0.15,0.24,0.16
U65,PolyA,0.16,0.18,0.08,0.33
A66,PolyA,0.22,-0.12,-0.16,-0.02
A67,PolyA,0.18,0.03,0.19,0.11
G68,PolyA,0.41,0.18,0.30,0.02
C69,PolyA,0.12,0.20,-0.01,-0.03
C70,PolyA,0.18,0.08,0.24,0.22
U71,PolyA,0.03,0.04,0.22,0.00
C72,PolyA,0.12,0.02,-0.03,0.09
A73,PolyA,0.13,0.18,0.01,-0.01
A74,PolyA,0.10,0.05,-0.06,0.13
U75,PolyA,-0.04,0.05,0.03,-0.15
A76,PolyA,0.11,-0.02,0.01,0.04
A77,PolyA,0.05,0.03,-0.03,0.07
A78,PolyA,0.06,-0.01,0.09,0.03
G79,PolyA,0.25,0.30,0.07,0.21
C80,PolyA,-0.09,0.07,-0.15,0.06

The last 4 entries again:

For A77 (domain PolyA) the result was 1G uncapped high-salt 0.05; 1G uncapped low-salt 0.03; 2G capped high-salt -0.03; 2G capped low-salt 0.07.
For A78 (domain PolyA) the result was 1G uncapped high-salt 0.06; 1G uncapped low-salt -0.01; 2G capped high-salt 0.09; 2G capped low-salt 0.03.
For G79 (domain PolyA) the result was 1G uncapped high-salt 0.25; 1G uncapped low-salt 0.30; 2G capped high-salt 0.07; 2G capped low-salt 0.21.
For C80 (domain PolyA) the result was 1G uncapped high-salt -0.09; 1G uncapped low-salt 0.07; 2G capped high-salt -0.15; 2G capped low-salt 0.06.